In patent publication US20090104214A1 (priority 2004, published 2009):

Target: T1, P13423 (Bacillus anthracis), P13423
T1 chain: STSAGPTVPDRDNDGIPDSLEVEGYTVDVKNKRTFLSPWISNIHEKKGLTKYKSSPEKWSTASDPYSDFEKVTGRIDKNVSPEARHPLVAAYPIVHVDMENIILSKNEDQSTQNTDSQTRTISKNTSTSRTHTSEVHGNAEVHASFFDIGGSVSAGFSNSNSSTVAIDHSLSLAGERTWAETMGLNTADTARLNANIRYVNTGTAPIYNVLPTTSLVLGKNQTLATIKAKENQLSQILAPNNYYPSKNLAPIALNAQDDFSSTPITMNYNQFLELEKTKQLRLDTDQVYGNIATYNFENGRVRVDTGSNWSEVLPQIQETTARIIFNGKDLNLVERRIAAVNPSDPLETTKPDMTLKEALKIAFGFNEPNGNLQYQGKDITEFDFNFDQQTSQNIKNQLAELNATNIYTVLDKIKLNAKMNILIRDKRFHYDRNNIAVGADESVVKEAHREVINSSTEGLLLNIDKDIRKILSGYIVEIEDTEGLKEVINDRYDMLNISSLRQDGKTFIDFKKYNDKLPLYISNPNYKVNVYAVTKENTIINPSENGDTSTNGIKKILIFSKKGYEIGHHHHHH
Assay: ELISA inhibition of PA63-LF binding
Conditions: chains peptide; modification not given

Binder	IC50 [µM]
NVMTYWWLDPPL [MAP3, tetra-branched Multiple Antigen Peptide of …]	0.4
TLPYWWLTPSNP [MAP2, tetra-branched Multiple Antigen Peptide of …]	6.5
